Test results from US9156811B2 (priority 2008, dated 2015).
Where two headings read alike, the source gives them in different places.

Amino acid sequences for entries named in this document (tags omitted). Residues count along the entry.
UniProt Q388H8, 1-446: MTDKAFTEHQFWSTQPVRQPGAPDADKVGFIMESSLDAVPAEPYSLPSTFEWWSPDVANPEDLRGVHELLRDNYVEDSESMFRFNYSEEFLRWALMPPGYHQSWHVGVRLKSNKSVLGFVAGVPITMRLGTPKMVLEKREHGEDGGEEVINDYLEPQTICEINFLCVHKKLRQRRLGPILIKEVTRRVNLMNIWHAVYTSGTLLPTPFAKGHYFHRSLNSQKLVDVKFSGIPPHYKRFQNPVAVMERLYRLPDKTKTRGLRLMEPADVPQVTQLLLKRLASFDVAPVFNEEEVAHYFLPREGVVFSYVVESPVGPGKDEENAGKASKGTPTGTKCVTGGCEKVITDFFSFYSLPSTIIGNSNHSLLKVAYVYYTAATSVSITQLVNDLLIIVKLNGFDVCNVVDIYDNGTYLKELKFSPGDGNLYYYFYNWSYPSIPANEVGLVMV
UniProt Q4Q5S8, 1-421: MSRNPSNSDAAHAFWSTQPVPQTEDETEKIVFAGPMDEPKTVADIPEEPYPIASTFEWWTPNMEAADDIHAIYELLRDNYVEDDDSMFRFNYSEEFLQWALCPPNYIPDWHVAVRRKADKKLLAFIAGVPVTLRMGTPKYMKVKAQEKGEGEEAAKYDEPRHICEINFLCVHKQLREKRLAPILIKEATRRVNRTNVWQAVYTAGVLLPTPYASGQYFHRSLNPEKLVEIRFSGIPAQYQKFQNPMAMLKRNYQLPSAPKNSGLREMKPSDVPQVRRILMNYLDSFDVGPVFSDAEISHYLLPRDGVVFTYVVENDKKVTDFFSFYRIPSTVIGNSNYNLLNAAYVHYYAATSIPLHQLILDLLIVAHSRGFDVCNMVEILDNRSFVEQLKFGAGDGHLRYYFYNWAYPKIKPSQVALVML

What was measured:
[1] = tested on: Trypanosome (T. brucei brucei); test: In-vitro antitrypanosomal efficacy assay (cell growth, resazurin); format: cell-based
[2] = target: T. brucei N-myristoyl transferase (Trypanosoma brucei brucei (strain 927/4 GUTat10.1), UniProt Q388H8); test: NMT enzyme inhibition scintillation proximity assay, T. brucei NMT; format: biochemical
[3] = target: L. major N-myristoyl transferase (Leishmania major, UniProt Q4Q5S8); conditions: read-out: IC50 (μM) NMT Enzyme (LmNMT)
[4] = T. brucei brucei, blood stream form, variant 221

Row | SMILES | ED50 (μM) T. brucei ([1]; T. brucei cell growth) [µM] | other results
1 | Cc1nn(C)c(C)c1NS(=O)(=O)c1c(Cl)cc(-c2ccc(CN3CCCCC3)cc2)cc1Cl | >1 | –
2 | Cc1nn(C)c(C)c1NS(=O)(=O)c1ccc(NCCN(C)C)nc1 | >1 | –
3 | Cc1nn(C)c(C)c1NS(=O)(=O)c1ccc(C[S+]([O-])c2ccc3ccccc3c2)cc1 (centres unmarked) | >1 | IC50 ([2]; read-out: IC50 (μM) NMT Enzyme, value printed without enzyme tag in the NMT Enzyme column (taken as T. brucei NMT)): 9.3 µM
4 | Cc1nn(C)c(C)c1NS(=O)(=O)c1cccc(C#N)c1 | >1 | –
5 | Cc1nn(C)c(C)c1N(C)S(=O)(=O)c1ccc(Cl)nc1 | >1 | –
6 | Cc1nn(C)c(C)c1NS(=O)(=O)c1c(Cl)cc(-c2ccc(CO)cc2)cc1Cl | 3.4 | –
7 | Cc1nn(C)c(C)c1NS(=O)(=O)c1ccc(NCc2ccccc2)nc1 | >1 | –
8 | Cc1cc(CNc2ccc(S(=O)(=O)Nc3c(C)nn(C)c3C)cn2)no1 | 7.9 | –
9 | COc1ccc(-c2cc(Cl)c(S(=O)(=O)Nc3c(C)nn(C)c3C)c(Cl)c2)c(OC)c1 | >1 | –
10 | Cc1nn(C)c(C)c1NS(=O)(=O)c1ccc(N2CCc3ccc(Br)cc3C2)nc1 | >1 | IC50 ([2]; read-out: IC50 (μM) NMT Enzyme): 2.4 µM
11 | Cc1nn(C)c(C)c1NS(=O)(=O)c1ccc(Cn2ccnc2Br)cc1 | >1 | –
12 | Cc1nn(C)c(C)c1NS(=O)(=O)c1ccc(CNc2cccc3ccccc23)cc1 | >1 | –
13 | Cc1nn(C)c(C)c1NS(=O)(=O)c1ccc(Cn2cnc(Br)c2)cc1 | >1 | –
14 | Cc1c(N(C(F)F)S(=O)(=O)c2c(Cl)cc(Br)cc2Cl)c(CC(C)C)nn1C | – | IC50 ([2]; read-out: IC50 (μM) NMT Enzyme (T. brucei NMT), T. brucei NMT, value without parentheses): 5.3 µM; IC50 ([3]; Leishmania major NMT, value in parentheses): 1.2 µM; ED50 (μM) T. brucei [1, 4]: >1 µM
15 | Cc1nn(C)c(C)c1NS(=O)(=O)c1c(Cl)cc(-c2ccc3[nH]ccc3c2)cc1Cl | >1 | –
16 | Cc1noc(C)c1NS(=O)(=O)c1ccc(Cl)nc1 | >1 | –
17 | Cc1c(NS(=O)(=O)c2ccc(Br)cc2)c(Cc2ccccc2)nn1C | – | IC50 [3]: > 1 µM; ED50 (μM) T. brucei [1, 4]: 33.9 µM
18 | Cc1nn(C)c(C)c1NS(=O)(=O)c1c(Cl)cc(-c2ccc(OC(F)(F)F)cc2)cc1-c1ccc(OC(F)(F)F)cc1 | >1 | –
